Data published in US11331370B2, “Combination product for the prevention of sexually transmitted infections” (priority 2014, dated 2022).

Tested on: HIV-192BR014
Assay: Anti-HIV combination activity in activated PBMCs, p24 ELISA, Chou-Talalay
Format: cell-based
Conditions: PBMC, HIV-1 92BR014

## CC(=O)[O-].CC(=O)[O-].[Zn+2] [ZA, zinc acetate]
  m, slope of the median-effect plot: 2.655

## Griffithsin [GRFT]
  m, slope of the median-effect plot: 2.784
